Pooled drug test results. Numbers come from NIAID ChemDB, via PubChem.

Shared fields: growth or infection tests; species: HIV-1; cell line: MT-2; measure: EC50

Conditions beyond the fields shown may differ between rows.

smiles,strain or isolate,mutations,read by,result
O=C(NCCO)c1c(O)c2ncc(Cc3ccc(F)cc3)c3c2n(c1=O)CCCN3,IIIB,-,ATP / luminescence,0.008 µM
C#C[C@@]1(CO)C=C[C@H](n2cc(C)c(=O)[nH]c2=O)O1,Clinical isolate,M184V,recombinant virus assay,0.7429 µM
CC(C)C1=C2[C@H]3CC[C@@H]4[C@@]5(C)CC[C@H](OC(=O)[C@H]6C[C@@H](C(=O)O)C6(C)C)C(C)(C)[C@@H]5CC[C@@]4(C)[C@]3(C)CC[C@@]2(NC(=O)C(C)(C)NC(=O)c2ccc(N3CCC(N4CCOCC4)CC3)cc2)CC1=O,92HT599,-,p24 / ELISA,<0.003 µM
CNC(=O)[C@]1(C)Cn2c(=O)c(C(=O)NCCC#N)c(O)c3ncc(Cc4ccc(F)cc4)c(c32)O1,IIIB,-,ATP / luminescence,0.0314 µM
Cc1cc(C(=O)NC(C)(C)C(=O)N[C@@]23CC[C@]4(C)[C@H](CC[C@@H]5[C@@]6(C)CC[C@H](OC(=O)[C@H]7C[C@@H](C(=O)O)C7(C)C)C(C)(C)[C@@H]6CC[C@]54C)C2=C(C(C)C)C(=O)C3)n[nH]1,92HT599,-,p24 / ELISA,<0.003 µM
COc1ccc(N(C)C(=O)[C@H](Cc2cc(F)cc(F)c2)NC(=O)COc2nc3ccccc3n(CC(=O)N[C@@H](Cc3cc(F)cc(F)c3)C(=O)N(C)c3ccc(OC)cc3)c2=O)cc1,NL4-3,-,luciferase,0.12 µM
C=C(C)[C@@H]1CC[C@]2(C(=O)O)CC[C@]3(C)[C@H](CC[C@@H]4[C@@]5(C)CC=C(c6cccc(CCC(=O)O)c6)C(C)(C)[C@@H]5CC[C@]43C)[C@@H]12,NL4-3,Gag P373S,luciferase,1 µM
CC(C)OC(=O)N1CCC2(C1)OCCn1c2nc(C(=O)NCc2ccc(F)cc2)c(O)c1=O,NL4-3,-,luciferase / reporter gene,0.001–0.01 µM
CCc1ccc(N(C)C(=O)[C@H](Cc2cc(F)cc(F)c2)NC(=O)NS(=O)(=O)N[C@@H](Cc2cc(F)cc(F)c2)C(=O)N(C)c2ccc(CC)nc2)cn1,NL4-3,-,luciferase,0.03 µM
CC(C)C1=C2[C@H]3CC[C@@H]4[C@@]5(C)CC[C@H](OC(=O)[C@H]6C[C@@H](C(=O)O)C6(C)C)C(C)(C)[C@@H]5CC[C@@]4(C)[C@]3(C)CC[C@@]2(CCNCc2ccc(CN3CCS(=O)(=O)CC3)cc2)CC1=O,92HT599,-,p24 / ELISA,<1 µM
C=C(C)[C@@H]1CC[C@]2(C(=O)O)CC[C@]3(C)[C@H](CC[C@@H]4[C@@]5(C)CC=C(c6ccc(C7(C(=O)O)CC7)cc6)C(C)(C)[C@@H]5CC[C@]43C)[C@@H]12,NL4-3,Gag P373S,luciferase,1 µM
CN(C(=O)[C@H](Cc1cc(F)cc(F)c1)NC(=O)NS(=O)(=O)N[C@@H](Cc1cc(F)cc(F)c1)C(=O)N(C)c1ccc(Cl)cc1)c1ccc(Cl)cc1,NL4-3,-,luciferase,0.04 µM
Cc1ccc(S(=O)(=O)N2CCC3(CC2)OCCn2c3nc(C(=O)NC(C)c3ccc(F)cc3)c(O)c2=O)cc1,NL4-3,-,luciferase / reporter gene,0.01–0.1 µM
O=C(O)c1cc(-n2cccc2)ccc1Cl,IIIB X4 CLADE B,-,p24,2.21 µM
CC(C)C1=C2[C@H]3CC[C@@H]4[C@@]5(C)CC[C@H](OC(=O)[C@H]6C[C@@H](C(=O)O)C6(C)C)C(C)(C)[C@@H]5CC[C@@]4(C)[C@]3(C)CC[C@@]2(NC(=O)C(C)(C)NC(=O)c2ccc(Cl)cc2OCCN(C)C)CC1=O,92HT599,-,p24 / ELISA,<0.003 µM
COc1ccc(OCCN(C)c2ccc(-c3cnc(C)c([C@H](OC(C)(C)C)C(=O)O)c3N3CCC(C)(C)CC3)cn2)cc1,NL4-3,-,luminescence,0.002 µM
C=C(C)[C@@H]1CC[C@]2(CO)CC[C@]3(C)[C@H](CC[C@@H]4[C@@]5(C)CC=C(c6ccc(C(=O)O)cc6F)C(C)(C)[C@@H]5CC[C@]43C)[C@@H]12,NL4-3,Gag P373S,luciferase,1 µM
Cc1cc(F)ccc1OCCNc1ccc(-c2cnc(C)c([C@H](OC(C)(C)C)C(=O)O)c2N2CCC(C)(C)CC2)nc1,NL4-3,-,luminescence,0.0016 µM
CC(C)C1=C2[C@H]3CC[C@@H]4[C@@]5(C)CC[C@H](OC(=O)[C@H]6C[C@@H](C(=O)O)C6(C)C)C(C)(C)[C@@H]5CC[C@@]4(C)[C@]3(C)CC[C@@]2(CC(=O)NCC(C)(C)NC(=O)c2ccc(Cl)c(Cl)c2)CC1=O,92HT599,-,p24 / ELISA,<1 µM
COc1ccc(N(C)C(=O)C(Cc2ccccc2)NC(=O)Cc2ccc(CC(=O)N[C@@H](Cc3ccccc3)C(=O)N(C)c3ccc(OC)cc3)cc2)cc1,NL4-3,-,luciferase,2.76 µM
CC(C)C1=C2[C@H]3CC[C@@H]4[C@@]5(C)CC[C@H](OC(=O)[C@H]6C[C@@H](C(=O)O)C6(C)C)C(C)(C)[C@@H]5CC[C@@]4(C)[C@]3(C)CC[C@@]2(CC(=O)NCC(C)(C)NC(=O)C2CCNCC2)CC1=O,92HT599,-,p24 / ELISA,<1 µM
Cc1ncc(-c2ccc(OCCOc3ccc(Cl)cc3)cn2)c(N2CCC(C)(C)CC2)c1[C@H](OC(C)(C)C)C(=O)O,NL4-3,-,luminescence,0.0039 µM
CC(C)C1=C2[C@H]3CC[C@@H]4[C@@]5(C)CC[C@H](OC(=O)[C@H]6C[C@@H](C(=O)O)C6(C)C)C(C)(C)[C@@H]5CC[C@@]4(C)[C@]3(C)CC[C@@]2(NC(=O)C(C)(C)NC(=O)c2ccc(Cl)cc2OCCN2CCCCC2)CC1=O,92HT599,-,p24 / ELISA,<0.003 µM
CC(C)C1=C2[C@H]3CC[C@@H]4[C@@]5(C)CC[C@H](OC(=O)[C@H]6C[C@@H](C(=O)O)C6(C)C)C(C)(C)[C@@H]5CC[C@@]4(C)[C@]3(C)CC[C@@]2(CCNC(=O)c2ccc(S(C)(=O)=O)cc2)CC1=O,92HT599,-,p24 / ELISA,<1 µM
Cc1ncc(-c2ccc(NCCOc3ccc(F)cc3F)cn2)c(N2CCC(C)(C)CC2)c1[C@H](OC(C)(C)C)C(=O)O,NL4-3,-,luminescence,0.0016 µM
O=C(NCc1ccc(F)cc1)c1nc2n(c(=O)c1O)CCOC21CCN(C(=O)OCc2ccccc2)CC1,NL4-3,-,luciferase / reporter gene,0.001–0.01 µM
CC(C)C1=C2[C@H]3CC[C@@H]4[C@@]5(C)CC[C@H](OC(=O)[C@H]6C[C@@H](C(=O)O)C6(C)C)C(C)(C)[C@@H]5CC[C@@]4(C)[C@]3(C)CC[C@@]2(CCNC[C@@H]2CCCNC2)CC1=O,92HT599,-,p24 / ELISA,<1 µM
C=C(C)[C@@H]1CC[C@]2(CO)CC[C@]3(C)[C@H](CC[C@@H]4[C@@]5(C)CC=C(c6cc(C(=O)O)no6)C(C)(C)[C@@H]5CC[C@]43C)[C@@H]12,NL4-3,Gag P373S,luciferase,1 µM
Cc1ncc(-c2ccc(OC[C@@H]3CCCO3)cn2)c(N2CCC(C)(C)CC2)c1[C@H](OC(C)(C)C)C(=O)O,NL4-3,-,luminescence,0.0017 µM
C=C(C)[C@@H]1CC[C@]2(C(=O)O)CC[C@]3(C)[C@H](CC[C@@H]4[C@@]5(C)CC=C(c6ccc(CCC(=O)O)cc6)C(C)(C)[C@@H]5CC[C@]43C)[C@@H]12,NL4-3,Gag P373S,luciferase,1 µM
COc1ccc(N(C)C(=O)[C@H](Cc2cc(F)cc(F)c2)NC(=O)Cn2c(=O)n(CC(=O)N[C@@H](Cc3cc(F)cc(F)c3)C(=O)N(C)c3ccc(OC)cc3)c3ccccc32)cc1,NL4-3,-,luciferase,0.02 µM
CNC(=O)c1c(O)c2ncc(Cc3ccc(F)cc3)c3c2n(c1=O)C[C@](C)(C(=O)NCC1(C#N)CC1)O3,IIIB,-,ATP / luminescence,0.014 µM
CC(C)C1=C2[C@H]3CC[C@@H]4[C@@]5(C)CC[C@H](OC(=O)[C@H]6C[C@@H](C(=O)O)C6(C)C)C(C)(C)[C@@H]5CC[C@@]4(C)[C@]3(C)CC[C@@]2(CC(=O)N[C@H](C)c2ccccc2)CC1=O,92HT599,-,p24 / ELISA,<1 µM
CCOC(=O)C(=O)N1CCC2(C1)OCCn1c2nc(C(=O)NCc2ccc(F)cc2)c(O)c1=O,NL4-3,-,luciferase / reporter gene,0.01–0.1 µM
Cc1ncc(-c2ccc(OCCOC(C)(C)C)cn2)c(N2CCC(C)(C)CC2)c1[C@H](OC(C)(C)C)C(=O)O,NL4-3,-,luminescence,0.0018 µM
COc1ccnc2[nH]cc(C(=O)C(=O)N3CCN(C(=O)c4ccccc4)C[C@H]3C)c12,LAI(GP120-V68A) Recombinant,GP120-V68A,RT activity,<0.015 µM
COc1cc(Cl)ccc1C(=O)NC(C)(C)C(=O)N[C@@]12CC[C@]3(C)[C@H](CC[C@@H]4[C@@]5(C)CC[C@H](OC(=O)[C@H]6C[C@@H](C(=O)O)C6(C)C)C(C)(C)[C@@H]5CC[C@]43C)C1=C(C(C)C)C(=O)C2,92HT599,-,p24 / ELISA,<0.003 µM
COc1ncc(OC)c2c(C(=O)C(=O)N3CCN(C(=O)c4ccccc4)CC3)c[nH]c12,MN,-,RT activity,>1 µM
CC(C)C1=C2[C@H]3CC[C@@H]4[C@@]5(C)CC[C@H](OC(=O)[C@H]6C[C@@H](C(=O)O)C6(C)C)C(C)(C)[C@@H]5CC[C@@]4(C)[C@]3(C)CC[C@@]2(CCNC(=O)c2ccc(Cl)cc2OCCN2CCOCC2)CC1=O,92HT599,-,p24 / ELISA,<1 µM
CNC(=O)c1nc2n(c(=O)c1O)CCOC21CCN(S(=O)(=O)c2cc(F)ccc2C)CC1,NL4-3,-,luciferase / reporter gene,≥0.1 µM
CNC(=O)c1c(O)c2ncc(Cc3ccc(F)cc3)c3c2n(c1=O)CC[C@@H](C(=O)CC(C)(C)CC#N)O3,IIIB,-,ATP / luminescence,0.018 µM
Nc1nc(NC2CC2)c2ncn([C@H]3C=C[C@@H](CO)C3)c2n1,Clinical isolate,K103N/Y188L,recombinant virus assay,0.1056 µM
CC(C)C1=C2[C@H]3CC[C@@H]4[C@@]5(C)CC[C@H](OC(=O)[C@H]6C[C@@H](C(=O)O)C6(C)C)C(C)(C)[C@@H]5CC[C@@]4(C)[C@]3(C)CC[C@@]2(NC(=O)C(C)(C)NC(=O)c2ccc(Cl)cc2OCCN2CCS(=O)(=O)CC2)CC1=O,92HT599,-,p24 / ELISA,<0.003 µM
COCCNC(=O)c1c(O)c2ncc(Cc3ccc(F)cc3)c3c2n(c1=O)C[C@H](CN1CCN(S(C)(=O)=O)CC1)O3,IIIB,-,ATP / luminescence,0.0097 µM

The last 4 rows once more:

CNC(=O)c1c(O)c2ncc(Cc3ccc(F)cc3)c3c2n(c1=O)CC[C@@H](C(=O)CC(C)(C)CC#N)O3 ; strain or isolate: IIIB ; read by: ATP / luminescence ; result: 0.018 µM
Nc1nc(NC2CC2)c2ncn([C@H]3C=C[C@@H](CO)C3)c2n1 ; strain or isolate: Clinical isolate ; mutations: K103N/Y188L ; read by: recombinant virus assay ; result: 0.1056 µM
CC(C)C1=C2[C@H]3CC[C@@H]4[C@@]5(C)CC[C@H](OC(=O)[C@H]6C[C@@H](C(=O)O)C6(C)C)C(C)(C)[C@@H]5CC[C@@]4(C)[C@]3(C)CC[C@@]2(NC(=O)C(C)(C)NC(=O)c2ccc(Cl)cc2OCCN2CCS(=O)(=O)CC2)CC1=O ; strain or isolate: 92HT599 ; read by: p24 / ELISA ; result: <0.003 µM
COCCNC(=O)c1c(O)c2ncc(Cc3ccc(F)cc3)c3c2n(c1=O)C[C@H](CN1CCN(S(C)(=O)=O)CC1)O3 ; strain or isolate: IIIB ; read by: ATP / luminescence ; result: 0.0097 µM

ECn: concentration that inhibits the pathogen or its effect by n%. a–b is a range or a potency band. Blank or dashed fields: not listed here.